## Potato spindle tuber viroid, stem 15: variant abundance in plants

Values reported by Wu et al. 2024 (doi:10.1371/journal.ppat.1012142).

PSTVd intermediate strain, stem 15: wild type CUGGAGCGAUCGCUUCGG, pool pattern CUGGAGCGAUNGNNUNNG; upper and lower strand joined, each 5' to 3', the first 9 letters being the upper strand.

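A pool of all variants was put on leaves of three Nicotiana benthamiana plants. Samples came from the inoculated region at 5 days, the leaf margin at 10 and upper systemic leaves at 12.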

Values are reads per thousand in the sample; higher means more abundant, 0 means not found. Each site shows the three plants. "Pool" is the share in the plasmid pool used as inoculum, on the same scale. The inoculated region was read from the minus strand, the other sites from the plus strand. IR is the inoculated region, LM the leaf margin, Sys the systemic leaves. The authors trace changes outside the varied positions to PCR and sequencing errors or to mutation in the plant; presence does not show that a variant is infectious alone.

sequence,pool,IR,LM,Sys
CUGGAGCGAUCGGGUUUG,0.711,0.313 0.293 0.391,0.0414 0 0.0317,0 0 0
CUGGAGCGAUCGGUUAAG,0.808,0.215 0.272 0.316,0.0620 0 0.0159,0 0 0
CUGGAGCGAUCGGUUACG,0.954,0.235 0.272 0.354,0.0207 0.0545 0.0159,0 0 0
CUGGAGCGAUCGGUUAGG,0.792,0.254 0.188 0.261,0.0207 0.0818 0.0476,0 0 0
CUGGAGCGAUCGGUUAUG,1.87,1.17 1.42 1.36,0.0414 0.0273 0.0159,0 0 0.0199
CUGGAGCGAUCGGUUCAG,1.20,0.294 0.209 0.279,0.0414 0 0.0159,0 0 0
CUGGAGCGAUCGGUUCCG,0.873,0.352 0.335 0.428,0.0620 0.0273 3.04,0 0 0
CUGGAGCGAUCGGUUCGG,0.695,0.372 0.419 0.316,0.0414 0.0545 0.0159,0.0198 0 0.0797
CUGGAGCGAUCGGUUCUG,1.39,0.607 0.733 0.838,0.0827 0.0273 0.0159,0 0 0
CUGGAGCGAUCGGUUGAG,0.986,0.254 0.230 0.391,0.0827 0.0273 0,0 0 0
CUGGAGCGAUCGGUUGCG,1.10,0.254 0.293 0.335,0 0.0545 0.0476,0 0 0
CUGGAGCGAUCGGUUGGG,1.66,0.704 0.796 0.912,0.103 0.191 0.0317,0 0.0222 0
CUGGAGCGAUCGGUUGUG,3.05,2.04 2.58 2.01,0.0827 0.0273 0.0317,0 0 0.0996
CUGGAGCGAUCGGUUUAG,1.55,0.607 1.07 0.447,0 0.136 0.0634,0 0 0.0199
CUGGAGCGAUCGGUUUCG,0.792,0.333 0.230 0.223,0.0207 0 0.0159,0 0 0
CUGGAGCGAUCGGUUUGG,2.05,1.33 1.21 1.56,0.0414 0.0273 0.0317,0 0 0.0199
CUGGAGCGAUCGGUUUUG,0.760,0.235 0.293 0.316,0.0620 0.0273 0,0 0 0
CUGGAGCGAUCGUAUAAG,0.905,0.235 0.293 0.335,0.0414 0 0.0317,0 0 0
CUGGAGCGAUCGUAUACG,0.840,0.274 0.188 0.409,0.0620 0 0.0317,0 0 0
CUGGAGCGAUCGUAUAGG,0.760,0.176 0.314 0.242,0.0620 0.0273 0.0317,0 0 0
CUGGAGCGAUCGUAUAUG,0.857,0.254 0.230 0.391,0 0.0545 0.0317,0 0 0
CUGGAGCGAUCGUAUCAG,0.921,0.176 0.272 0.316,0.0414 0.0818 0.0317,0 0 0
CUGGAGCGAUCGUAUCCG,0.598,0.215 0.356 0.186,0.145 0 0.0159,0 0 0
CUGGAGCGAUCGUAUCGG,0.840,0.254 0.230 0.372,0.0207 0.0273 0.0317,0 0 0
CUGGAGCGAUCGUAUCUA,0.598,0.215 0.607 0.540,0 0 0,0 0 0
CUGGAGCGAUCGUAUCUG,0.808,0.294 0.126 0.242,0.0207 0 0.0159,0 0 0
CUGGAGCGAUCGUAUGAG,0.614,0.313 0.398 0.261,0.0620 0.0545 0.0476,0 0 0
CUGGAGCGAUCGUAUGCG,0.937,0.294 0.188 0.354,0.0414 0.136 0.0159,0 0 0
CUGGAGCGAUCGUAUGGG,1.07,0.294 0.126 0.372,0.0207 0.0545 0.0159,0 0 0
CUGGAGCGAUCGUAUGUG,0.582,0.215 0.209 0.261,0.0414 0 0,0 0 0
CUGGAGCGAUCGUAUUAG,0.889,2.13 1.03 1.60,0.786 0.0545 0.872,0 0 0
CUGGAGCGAUCGUAUUCG,0.857,0.254 0.272 0.279,0.0414 0.0818 0.0159,0 0 0
CUGGAGCGAUCGUAUUGG,1.03,0.215 1.15 0.223,0.0620 0 0.0159,0 0 0
CUGGAGCGAUCGUAUUUG,0.921,0.196 0.126 0.261,0.0620 0 0.0317,0 0 0
CUGGAGCGAUCGUCUAAG,0.792,2.17 0.754 1.53,0.0620 0 0.0317,0 0 0
CUGGAGCGAUCGUCUACG,0.937,0.333 0.209 0.279,0 0 0.0159,0 0 0
CUGGAGCGAUCGUCUAGG,0.695,0.235 0.356 0.372,0 0 0,0 0 0
CUGGAGCGAUCGUCUAUG,0.857,0.333 0.377 0.484,0.0620 0.0273 0.0317,0 0 0
CUGGAGCGAUCGUCUCAG,0.582,2.25 1.19 0.261,0.103 0.0545 0,0 0 0
CUGGAGCGAUCGUCUCCG,2.08,1.19 2.03 1.01,0.0620 0.0818 0.0159,0 0 0.0199
CUGGAGCGAUCGUCUCGG,0.792,0.196 0.293 0.298,0.0620 0.0545 0.0159,0 0 0
CUGGAGCGAUCGUCUCUG,0.743,0.254 0.209 0.205,0 0.0273 0.0159,0 0 0
CUGGAGCGAUCGUCUGAG,0.905,2.21 1.05 1.30,0.558 0.0545 0.983,0 0 0
CUGGAGCGAUCGUCUGCG,0.760,0.313 0.272 0.242,0.0207 0.0818 0.0159,0 0 0
CUGGAGCGAUCGUCUGGG,0.760,0.254 0.272 0.112,0.0620 0.0273 0,0 0 0
CUGGAGCGAUCGUCUGUG,0.970,0.254 0.230 0.298,0.0620 0 0.0317,0 0 0
CUGGAGCGAUCGUCUUAG,0.824,4.19 1.80 1.53,0.434 0.572 0.777,0.653 0.620 0.399
CUGGAGCGAUCGUCUUCG,0.808,2.05 1.09 1.62,0.145 0.0273 1.03,0 0 0
CUGGAGCGAUCGUCUUGG,0.857,2.02 1.13 1.62,0.0207 0.0273 0.523,0 0 0
CUGGAGCGAUCGUCUUUG,0.792,1.74 0.921 1.43,0.0414 0.0273 0,0 0 0
CUGGAGCGAUCGUGUAAG,1.13,0.294 1.24 0.242,0.0414 0.0273 0.0159,0 0 0
CUGGAGCGAUCGUGUACG,0.792,0.391 0.356 0.223,0.0620 0 0.0159,0 0 0
CUGGAGCGAUCGUGUAGG,0.840,0.215 0.272 0.223,0.0620 0.0545 0.0159,0 0 0
CUGGAGCGAUCGUGUAUG,0.792,0.254 0.398 0.335,0.0207 0 0,0 0 0
CUGGAGCGAUCGUGUCAG,0.905,0.274 0.398 0.335,0.0414 0 0.0634,0 0 0
CUGGAGCGAUCGUGUCCG,0.760,0.294 0.209 0.279,0 0 0,0 0 0
CUGGAGCGAUCGUGUCGG,1.02,0.294 0.272 0.465,0 0 0,0 0 0
CUGGAGCGAUCGUGUCUG,0.889,0.352 0.168 0.279,0.0827 0 0.0159,0 0 0
CUGGAGCGAUCGUGUGAG,0.986,0.215 0.314 0.316,0.0620 0.0273 0.0159,0 0 0
CUGGAGCGAUCGUGUGCG,0.921,0.254 0.209 0.261,0.0414 0.0273 0.0317,0 0 0
CUGGAGCGAUCGUGUGGG,0.614,0.117 0.251 0.242,0.0620 0.0273 0.0159,0 0 0
CUGGAGCGAUCGUGUGUG,0.760,0.235 0.293 0.298,0.0620 0.0545 0.0317,0 0 0
CUGGAGCGAUCGUGUUAG,0.857,1.84 0.900 1.69,0.0414 0 0.919,0 0 0
CUGGAGCGAUCGUGUUCG,1.00,0.313 1.24 0.316,0.0414 0.0545 0.0317,0 0 0
CUGGAGCGAUCGUGUUGG,0.792,0.157 0.188 0.372,0.145 0.0273 0.0159,0 0 0
CUGGAGCGAUCGUGUUUG,0.695,0.254 0.272 0.428,0.0827 0.0273 0,0 0 0
CUGGAGCGAUCGUUUAAG,1.05,0.372 0.879 0.298,0 0.0818 0.0317,0 0 0
CUGGAGCGAUCGUUUACG,0.792,0.215 0.335 0.316,0.0827 0.0273 0,0 0 0
CUGGAGCGAUCGUUUAGG,0.711,0.352 0.335 0.372,0.0207 0.0545 0,0 0 0
CUGGAGCGAUCGUUUAUG,0.921,0.294 0.356 0.205,0.103 0.0818 0,0 0 0

Wild type was 10.2 per thousand in the pool and the most common sequence in every sample (inoculated region 285, 367, 312; leaf margin 785, 865, 782; systemic leaves 854, 898, 915). Samples held 36,693 to 63,082 reads, so the smallest values rest on one or two reads.